A mixed list of measured activities; the numbers were collected in NIAID ChemDB.

All rows: growth or infection tests; organism: Cryptococcus neoformans

ECn is the concentration giving n% inhibition of infection, replication or growth. Lines come from different laboratories, so protocols vary. A number after MIC or MFC names an inhibition level or a share of isolates. Blank or dashed fields: not listed here.

smiles | read by | read-out | strain | value
C[C@@H]1[C@H](O)[C@@H](C)/C=C/C=C/CC/C=C/C=C/C=C/C=C/C(O[C@H]2O[C@H](C)[C@@H](O)[C@H](N)[C@@H]2O)CC2O[C@](O)(CC(O)C(O)CCC(O)CC(O)CC(O)CC(=O)O[C@H]1C)CC(O)C2C(=O)O | broth dilution / turbidity | EC50 |  | 3.125 µg/mL
CN[C@@H]1[C@H](O[C@@H]2OC[C@@H](O)[C@H](O)[C@H]2O)[C@@H](O)[C@H](O[C@H]2c3cc(C)c(C(=O)N(C)CC(=O)O)c(O)c3-c3c(cc4c(c3O)C(=O)c3cc(OC)cc(O)c3C4=O)[C@@H]2O)O[C@@H]1C |  | MIC | IAM 4514 | >100 µg/mL
c1ccc(CCCCC[n+]2c3ccccc3cc3[nH]c4ccccc4c32)cc1 |  | MIC | ATCC 52657 | 1.9 µg/mL
CN(C)C1=NC(=O)/C(=C/c2ccccc2)S1 | broth dilution | MIC100 | ATCC 32264 | 250 µg/mL
Cc1cc(O)c2c(c1)C(=O)C=CC2=O |  | MFC |  | 1 µg/mL
COC[n+]1c2ccccc2cc2[nH]c3ccccc3c21 |  | MIC | ATCC 52657 | 31.2 µg/mL
CN[C@@H]1[C@H](O[C@@H]2OC[C@@H](O)[C@H](O)[C@H]2O)[C@@H](O)[C@H](O[C@H]2c3cc(C)c(C(N)=O)c(O)c3-c3c(cc4c(c3O)C(=O)c3cc(OC)cc(O)c3C4=O)[C@@H]2O)O[C@@H]1C |  | MIC | IAM 4514 | >100 µg/mL
COC(=O)Nc1nc2ccccc2[nH]1 |  | EC50 | ATCC 14116 | <2.3 µg/mL
c1ccc(CCCCCCCC[n+]2c3ccccc3cc3[nH]c4ccccc4c32)cc1 |  | MIC | ATCC 52657 | 10 µg/mL
CN[C@@H]1[C@H](O[C@@H]2OC[C@@H](O)[C@H](O)[C@H]2O)[C@@H](O)[C@H](O[C@H]2c3cc(C)c(C(=O)O)c(O)c3-c3c(cc4c(c3O)C(=O)c3cc(OC)cc(O)c3C4=O)[C@@H]2O)O[C@@H]1C |  | MIC | IAM 4514 | >100 µg/mL
CO[C@H]1C[C@H](O[C@H]2CC[C@@]3(C)C(=CC[C@@H]4[C@@H]3CC[C@]35C(=O)O[C@H](C)[C@H]3C(=O)C[C@]45O)C2)O[C@H](C)[C@H]1O[C@H]1C[C@H](OC)[C@H](O[C@@H]2C[C@@H](OC)[C@@H](O[C@@H]3O[C@H](CO)[C@@H](O)[C@H](O)[C@H]3O)[C@H](C)O2)[C@@H](C)O1 | broth dilution / turbidity | MIC | IP 90526 | 25 µg/mL
CCCCC[n+]1c2ccccc2cc2[nH]c3ccccc3c21 |  | MIC | ATCC 52657 | 31.2 µg/mL
COC(=O)Nc1nc2ccc(Sc3ccccc3)cc2[nH]1 |  | EC50 | IU8698 | <0.014 µg/mL
c1ccc(C[n+]2c3ccccc3cc3[nH]c4ccccc4c32)cc1 |  | MIC | ATCC 52657 | >250 µg/mL
CO[C@H]1C[C@H](O[C@H]2CC[C@@]3(C)C(=CC[C@@H]4[C@@H]3CC[C@]35C(=O)O[C@H](C)[C@H]3C(=O)C[C@]45O)C2)O[C@H](C)[C@H]1O[C@H]1C[C@H](OC)[C@H](O[C@@H]2C[C@@H](OC)[C@@H](O)[C@H](C)O2)[C@@H](C)O1 | broth dilution / turbidity | MIC | IP 90526 | 50 µg/mL
COc1cc(/C=C2\SC(N(C)C)=NC2=O)cc(OC)c1OC | broth dilution | MIC100 | ATCC 32264 | >250 µg/mL
CCCCCCCCCCNC1CCc2cccc(O)c2C1 |  | MIC |  | 1 µM
CN[C@@H]1[C@H](O[C@@H]2OC[C@@H](O)[C@H](O)[C@H]2O)[C@@H](O)[C@H](O[C@H]2c3cc(C)c(C(=O)NCCC(=O)O)c(O)c3-c3c(cc4c(c3O)C(=O)c3cc(OC)cc(O)c3C4=O)[C@@H]2O)O[C@@H]1C |  | MIC | IAM 4514 | >100 µg/mL
CO[C@H]1C[C@H](O[C@H]2CC[C@@]3(C)C(=CC[C@H]4C5=CC(=O)[C@@H]6[C@@H](C)OC(=O)[C@]56CC[C@@H]43)C2)O[C@H](C)[C@H]1O[C@H]1C[C@H](OC)[C@H](O[C@@H]2C[C@@H](OC)[C@@H](O[C@@H]3O[C@H](CO[C@@H]4O[C@H](CO)[C@@H](O)[C@H](O)[C@H]4O)[C@@H](O)[C@H](O)[C@H]3O)[C@H](C)O2)[C@@H](C)O1 | broth dilution / turbidity | MIC | IP 90526 | 25 µg/mL
N#CC[n+]1c2ccccc2cc2[nH]c3ccccc3c21 |  | MIC | ATCC 52657 | 31.2 µg/mL
CN(C)C1=NC(=O)/C(=C/c2ccc(Cl)cc2)S1 | broth dilution | MIC100 | ATCC 32264 | 8 µg/mL
CO[C@H]1C[C@H](O[C@H]2CC[C@@]3(C)C(=CC[C@@H]4[C@@H]3CC[C@]35C(=O)O[C@H](C)[C@H]3C(=O)C[C@]45O)C2)O[C@H](C)[C@H]1O | broth dilution / turbidity | MIC | IP 90526 | 25 µg/mL
CCCCNC(=O)n1c(NC(=O)OC)nc2ccccc21 |  | EC90 | ATCC 14116 | 3.5 µg/mL
COc1cc(O)c(C(C)=O)c(OC)c1 |  | MIC |  | >500 µg/mL
CC12C(=O)c3cccc(O)c3C(=O)C1CC1=C2C(=O)c2c(O)cccc2C1=O |  | MFC |  | 100 µg/mL

Repeating the final 4 entries:

smiles	read by	read-out	strain	value
CO[C@H]1C[C@H](O[C@H]2CC[C@@]3(C)C(=CC[C@@H]4[C@@H]3CC[C@]35C(=O)O[C@H](C)[C@H]3C(=O)C[C@]45O)C2)O[C@H](C)[C@H]1O	broth dilution / turbidity	MIC	IP 90526	25 µg/mL
CCCCNC(=O)n1c(NC(=O)OC)nc2ccccc21		EC90	ATCC 14116	3.5 µg/mL
COc1cc(O)c(C(C)=O)c(OC)c1		MIC		>500 µg/mL
CC12C(=O)c3cccc(O)c3C(=O)C1CC1=C2C(=O)c2c(O)cccc2C1=O		MFC		100 µg/mL